{
  "source": "patent US6514692B2",
  "about": "“Method for treatment of immunodeficiency virus infection” (priority 1996, dated 2003)",
  "system": "SK1 isolate of HIV-1",
  "text": "ME180 cells, a cervical epithelial cell line, were obtained from the American Type Culture Collection. These cells were thawed from liquid nitrogen and grown in RPMI 1640 medium supplemented with 10t fetal bovine serum, glutamine and antibiotics. The cells were adherent and were trypsinized (0.5% trypsin in HBSS) to remove them from the flask for passaging and use in assays. For use in the microtiter transmission inhibition assay, ME180 cells were trypsinized, washed and seeded in 96-well flat bottom microtiter plates (COSTAR) at a density of 5×10^3 cells per well. The cells were incubated at 37° C. for 24 hours prior to the tart of the assay. H9 cells chronically infected with he SK1 isolate of HIV-1 were treated with 200 μg/ml mitomycin C for 60 minutes at 37° C. After treatment the cells were washed three times with tissue culture medium. The chronically infected lymphocytes were added to each well at a density of 2×10^4 cells per well. […] At six days post-co-cultivation, the supernatant was removed from the wells and evaluated for the quantity of p24 antigen by ELISA. […] The amount of virus production in wells treated with various concentrations of the peptides was evaluated with appropriate cell and virus controls. […]",
  "note": "Like-named read-outs stand apart in the source and are kept apart here.",
  "data": [
    {"substance": "dextran sulfate", "values": [
      {"measurement": "TI (toxicity index, TC50/IC50)", "setting": "no mucin", "value": "TI = 500"},
      {"measurement": "TI (toxicity index, TC50/IC50)", "setting": "with 150 μg/ml pig mucin", "value": "TI = 500"}
    ]}
  ]
}
